Pooled drug test results. Numbers come from NIAID ChemDB, via PubChem.

Shared fields: growth or infection tests; agent: Mycobacterium bovis BCG; measure: MIC

Neighbouring rows are from separate reports.

CCCCCCCCCCCCCCCCCC#CC(=O)O ; strain: Pasteur ; value: 40.5 µM
CC(C)[C@]1(C)CC[C@]2(C)C=CC(C)(C)C[C@H](OC(=O)c3ccc(O)cc3)C12 ; strain: Pasteur ; value: 50 µg/mL
CC(C)CCOc1ccc(NC(=S)Nc2ccc(OCCC(C)C)cc2)cc1 ; strain: NCTC 5692 ethR::hyg ; value: 0.5 µg/mL
COc1cc(C(=O)O[C@H]2C[C@@]3(C)O[C@H]3C[C@@]3(C)CC[C@@](O)(C(C)C)C23)ccc1O ; strain: Pasteur ; value: 50 µg/mL
CCc1ccc(-c2cc(CN3CCOCC3)c(C)n2-c2ccc(F)cc2)cc1 ; strain: M8 ; mutations: L320P S258G ; value: 0.63 µM
CCSCCCCCCCCCCCCC#CC(=O)O ; strain: Pasteur ; value: 434.9 µM
CCc1cc(C(N)=S)ccn1 ; strain: NCTC 5692 ethR::hyg ; value: 0.5 µg/mL
Cc1c(CN2CCN(C)CC2)cc(-c2ccc(Cl)cc2)n1-c1ccc(Cl)cc1 ; strain: M1 ; mutations: L320R E466K I585V ; value: 15.04 µM
CCCCCCCCCCCCCC#CC(=O)OCC(O)CO ; strain: Pasteur ; value: 1.9 µM
CC1=C[C@H](OC(=O)c2ccccc2)C2[C@](C)(CC[C@@]2(O)C(C)C)CC1=O ; strain: Pasteur ; value: 25 µg/mL
COc1ccc(/C(C)=N/NC(N)=S)cc1 ; strain: Carrying pMV261 ; value: 0.25 µg/mL
CC(C)[C@]1(C)CC[C@]2(C)C=C[C@](C)(O)C[C@H](OC(=O)c3ccccc3)C12 ; strain: Pasteur ; value: >50 µg/mL
CCCCCCCCCCCCCC#CCC#CC(=O)O ; strain: Pasteur ; value: 5.4 µM
COc1cc(C(=O)OC2CC(C)=CCC3(C)CCC(O)(C(C)C)C23)ccc1O ; strain: Pasteur ; value: 6.25 µg/mL
CCCCCCCCCCCCCCCC#CC(=O)OCC(O)CO ; strain: Pasteur ; value: 0.9 µM

2 of the rows above, restated:

smiles	strain	mutations	value
CCc1cc(C(N)=S)ccn1	NCTC 5692 ethR::hyg	-	0.5 µg/mL
CCSCCCCCCCCCCCCC#CC(=O)O	Pasteur	-	434.9 µM

An empty or dashed field is not shown.